Anti-infective test results gathered from many reports (values: NIAID ChemDB through PubChem).

All rows: growth or infection tests; agent: Mycobacterium tuberculosis

Percent inhibition refers to the dose given; in toxicity tests it is the harm to the cells. ECn: concentration that inhibits the pathogen or its effect by n%. MIC bound comes from a single tested concentration. Conditions beyond the fields shown may differ between rows. An empty or dashed field is not shown.

SMILES | tested at | read by | strain or isolate | endpoint | result
C1COCCN1.S=C(S)N1CCOCC1 |  | BACTEC | H37Rv | MIC bound | >12.5 µg/mL
O=c1[nH]c(-c2ccccc2)c(-c2ccccc2)[nH]1 |  |  | H37Rv | MIC | >100 µg/mL
O=[N+]([O-])c1cc2cccnc2c2ncccc12 |  | BACTEC | H37Rv | MIC | 0.8 µg/mL
CO[C@H]1/C=C/O[C@@]2(C)Oc3c(C)c(O)c4c(O)c(c5c(c4c3C2=O)NC2(CCN(CC(C)C)CC2)N=5)=NC(=O)/C(C)=C\C=C\[C@H](C)[C@H](O)[C@@H](C)[C@@H](O)[C@@H](C)[C@H](OC(C)=O)[C@@H]1C |  |  | 3064 (rifampin-sensitive) | MIC | 0.025 µg/mL
CSC(=S)N/N=C(/C)Cc1ccccn1 |  |  | KM-R | MIC | 0.8 µg/mL
C1CN(CCN2CCOCC2)CCO1 |  |  | H37Rv | MIC | >100 µg/mL
N#Cc1c(N)[nH]c(S)c1C#N | 6.25 µg/mL | BACTEC | H37Rv | inhibition | 4%
CCCCCCCCCCCNCCNC(C)CC |  |  |  | MIC | 25 µM
CC(=O)c1c(O)c(C)c(O)c2c1OC1=CC(=O)c3c(C)noc3C12C | 12.5 µg/mL | BACTEC | H37Rv | inhibition | 48%
CCOC(=O)Nc1cc(Cl)c2ncc(-c3ccc(Cl)cc3)nc2n1 |  |  | H37Rv | EC50 | >12.5 µg/mL
CCCCC(CC)CN1CN(CC(CC)CCCC)CC(C)(NCCNC(C)CC(C)C)C1 |  |  |  | MIC | 25 µM
c1ccc([C@H]2C[C@@H]2NCCNC23CC4CC(CC(C4)C2)C3)cc1 |  |  |  | MIC | 25 µM
O=C(NCCO)c1cccnc1 |  | BACTEC | H37Rv | MIC bound | >12.5 µg/mL
C[C@H]1COc2c(N3CCN(C)CC3)c(F)cc3c(=O)c(C(=O)O)cn1c23 |  |  | ATCC 35827 | MIC | 0.25 µg/mL
CCCCC(Nc1cc(NC(=O)OCC)nc(N)c1N)C(C)O |  |  | H37Rv | EC50 | >12.5 µg/mL
CCCCC(CC)CN1CN(CC(CC)CCCC)CC(C)(NCCNCCCCO)C1 |  |  |  | MIC | 12.5 µM
CC[C@@H](CO)NCCNC1CCCCCCC1 |  |  |  | MIC | 25 µM
O=C(O)CC(O)(CC(=O)O)C(=O)O |  |  | H37Rv | MIC | >100 µg/mL
CCOC(=O)Nc1cc(N)c2c(n1)OCC(c1cccc(OC)c1)=N2 |  |  | H37Rv | EC50 | >12.5 µg/mL
O=C1c2c(I)c(I)c(I)c(I)c2C(=O)N1CCO |  |  | H37Rv | MIC | >100 µg/mL
COc1c2c(cc3c1C1Oc4c(ccc(O)c4CC=C(C)C)C1CO3)OC(C)(C)C=C2 |  |  | PAS-R | MIC | 12.5 µg/mL
O=C1CC(c2ccc(Cl)cc2)Oc2ccccc21 | 12.5 µg/mL |  |  | inhibition | 7%
CC1CN(c2cc3c(cc2F)c(=O)c(C(=O)O)cn3-c2ccc(F)cc2F)CCN1 |  |  | ATCC 35826 | MIC | 0.5 µg/mL
COc1ccccc1CCNCCNC1C2CC3CC(C2)CC1C3 |  |  |  | MIC | 25 µM
CCc1[nH]nc(C(N)=O)c1N=NN(C)C |  | BACTEC | H37Rv | MIC bound | >12.5 µg/mL
CC(C)c1ccc2c(c1)CC[C@H]1[C@](C)(CNCCNCCc3ccccc3F)CCC[C@]21C |  |  |  | MIC | 50 µM
Cl.N=C(N)c1ccc(N)cc1O |  |  | H37Rv | MIC | >100 µg/mL
Cc1cccc(CNCCNCCc2ccc(Cl)cc2Cl)c1 |  |  |  | MIC | 12.5 µM
CC(C)OC(=S)Nc1ccc(Cl)c(/C=N/OC(C)(C)C)c1 | 12.5 µg/mL | BACTEC | H37Rv | inhibition | 99%
O=C(O)c1ccccc1Oc1ccccc1C(=O)O |  |  | H37Rv | MIC | 100 µg/mL
Nc1nc(N)c2nc3c(nc2n1)C(=O)N(c1ccc(C(=O)O)cc1)C3 |  | BACTEC | H37Rv | MIC bound | >12.8 µg/mL
CC(=O)c1ccc(O)cc1O |  |  | H37Rv | MIC | >100 µg/mL
CCCCC(CC)CN1CN(CC(CC)CCCC)CC(C)(NCCNC2CCCC(C)C2C)C1 |  |  |  | MIC | 50 µM
O=C(/C=C/c1ccccc1)c1cccc(Br)c1O |  |  |  | EC50 | <12.5 µg/mL
Cc1cccc(NCC(N)=O)c1 |  |  | H37Rv | MIC | >100 µg/mL
CN[C@@H]1[C@H](O[C@H]2[C@H](O[C@H]3[C@H](O)[C@@H](O)[C@H](N=C(N)N)[C@@H](O)[C@@H]3N=C(N)N)O[C@@H](C)[C@]2(O)C=O)O[C@@H](CO)[C@H](O)[C@H]1O |  |  | TN3432 (W) | MIC | >2 µg/mL
Cl.c1ccc(Nc2cccc3ccccc23)nc1 |  |  | H37Rv | MIC | >100 µg/mL
CCOCCOCCN1CNc2nc(N)[nH]c(=O)c2C1 | 12.5 µg/mL | BACTEC | H37Rv | inhibition | 3%
c1ccc(C(NCCNC2CCCc3ccccc32)c2ccccc2)cc1 |  |  |  | MIC | 50 µM
O=c1cc(-c2ccccc2)oc2ccc(-c3ccccc3-c3cc(=O)c4ccccc4o3)cc12 |  |  | H37Rv | EC50 | >12.5 µg/mL
Cc1c(C2(c3cc(C(C)C)c(O)c(CN(CC(=O)O)CC(=O)O)c3C)OS(=O)(=O)c3ccccc32)cc(C(C)C)c(O)c1CN(CC(=O)O)CC(=O)O |  | BACTEC | H37Rv | MIC bound | >12.5 µg/mL
C[C@@H]1[C@@H](NCCNC2CCCCCCC2)C[C@H]2C[C@@H]1C2(C)C |  |  |  | MIC | 12.5 µM
NN1CC(=O)NC1=O | 12.5 µg/mL | BACTEC | H37Rv | inhibition | -8%
O=C(Cc1nc2ccccc2nc1-c1ccccc1)c1ccccc1 |  |  | H37Rv | MIC | 100 µg/mL
CCOC(=O)c1cc(Cl)cc2c(=O)c3c([nH]c12)C(=O)c1c([nH]c2c(C(=O)OCC)cc(Cl)cc2c1=O)C3=O | 12.5 µg/mL | BACTEC | H37Rv | inhibition | 8%
O=S1(=O)c2ccccc2Oc2cc(Cl)ccc21 |  |  | H37Rv | MIC | >100 µg/mL
COc1ccc(CNCCNCCCc2ccccc2)c(OC)c1 |  |  |  | MIC | 25 µM
CC(=O)O.O=C1NC2(CCN(Cc3ccccc3)CC2)Nc2ccccc21 |  | BACTEC | H37Rv | MIC bound | >12.5 µg/mL
CO[C@H]1/C=C/O[C@@]2(C)Oc3c(C)c(O)c4c(O)c(c(/C=N/N5CCN(C6CCCC6)CC5)c(O)c4c3C2=O)NC(=O)/C(C)=C\C=C\[C@H](C)[C@H](O)[C@@H](C)[C@@H](O)[C@@H](C)[C@H](O)[C@@H]1C |  |  | Isolate 900216 drug-susceptible | MIC | 0.125 µg/mL
C[C@H]1C[C@H](N)CN1c1cc2c(cc1F)c(=O)c(C(=O)O)cn2-c1ccc(F)cc1F |  |  | ATCC 35820 | MIC | 1 µg/mL
O=Cc1cc(Br)ccc1O |  |  | H37Rv | MIC | 25 µg/mL
COc1ccccc1CCNCCN1CC2(C)CC1CC(C)(C)C2 |  |  |  | MIC | 50 µM
CCOC(=O)Nc1cc(N)c([N+](=O)[O-])c(NCC(CN(C)c2ccc(NC)cc2)=NC)n1 |  |  | H37Rv | EC50 | >12.5 µg/mL
Oc1ccc(Cl)cc1 |  |  | H37Rv | MIC | 100 µg/mL
CCOC(=O)c1nnc(-c2ccccc2)c(-c2ccccc2)n1 | 12.5 µg/mL | BACTEC | H37Rv | inhibition | 63%
CC(Oc1ccc(C(C)(C)C)cc1)C(=O)Nc1ccc(NC(=O)CC(=O)c2ccccc2)cc1 |  |  | H37Rv | MIC | 50 µg/mL
CCOC(=O)Nc1cc(NCc2ccc(S(N)(=O)=O)cc2)c2nccnc2n1 | 12.5 µg/mL |  | H37Rv | inhibition | 0%
CC[C@H]1OC(=O)[C@H](C)[C@@H](O[C@H]2C[C@@](C)(OC)[C@@H](O)[C@H](C)O2)[C@H](C)[C@@H](O[C@@H]2O[C@H](C)C[C@H](N(C)C)[C@H]2O)[C@](C)(O)C[C@@H](C)C(=O)[C@H](C)[C@@H](O)[C@]1(C)O |  |  | ATCC 35820 | MIC | >8 µg/mL
O=S1(=O)CCCC1 |  |  | H37Rv | MIC | >100 µg/mL
CCCCC(CC)CN1CN(CC(CC)CCCC)CC(C)(NCCNCc2ccccc2OCC)C1 |  |  |  | MIC | 12.5 µM
N#Cc1ncc(C[P+](c2ccccc2)(c2ccccc2)c2ccccc2)nc1N.[Cl-] | 12.5 µg/mL | BACTEC | H37Rv | inhibition | 5%
CC(C)c1ccc2c(c1)CC[C@H]1[C@](C)(CNCCNCCCc3ccccc3)CCC[C@]21C |  |  |  | MIC | 25 µM
CO[C@H]1/C=C/O[C@@]2(C)Oc3c(C)c(O)c4c(O)c(c5c(c4c3C2=O)NC2(CCN(CC(C)C)CC2)N=5)=NC(=O)/C(C)=C\C=C\[C@H](C)[C@H](O)[C@@H](C)[C@@H](O)[C@@H](C)[C@H](OC(C)=O)[C@@H]1C |  |  | Strain 136 (H526P) | MIC | 16 µg/mL
CN(C)c1ccc(/C=C/C=N/NC(N)=O)cc1 |  |  | H37Rv | MIC | 50 µg/mL
CC1COc2c(N3CCN(C)CC3)c(F)cc3c(=O)c(C(=O)O)cn1c23 |  |  | ATCC 35828 | MIC | 0.5 µg/mL
CN(C)C(=S)SC(=S)N(C)C |  |  | H37Rv | MIC | 100 µg/mL
CC1(C)[C@@H]2CC[C@@]1(C)[C@@H](NCCNCC(c1ccccc1)c1ccccc1)C2 |  |  |  | MIC | 6.25 µM
CO[C@H]1/C=C/O[C@@]2(C)Oc3c(C)c(O)c4c(O)c(c(/C=N/N5CCN(C)CC5)c(O)c4c3C2=O)NC(=O)/C(C)=C\C=C\[C@H](C)[C@H](O)[C@@H](C)[C@@H](O)[C@@H](C)[C@H](OC(C)=O)[C@@H]1C |  |  | TN808 | MIC | >32 µg/mL
O=c1[nH]c(=O)c2ncn(-c3ccc([N+](=O)[O-])cn3)c2[nH]1 | 6.25 µg/mL | resazurin | H37Rv | inhibition | -5%
CC(C)N=c1cc2n(-c3ccc(Cl)cc3)c3ccccc3nc-2cc1Nc1ccc(Cl)cc1 |  | broth dilution / resazurin | MDR7 | MIC | 2 µg/mL
CC1CCC(NCCNC2CCCCCCC2)CC1 |  |  |  | MIC | 50 µM
Cc1ccc(S(=O)(=O)Oc2ccc3oc4c(CO)ccc(NCCN(C)C)c4c(=O)c3c2)cc1 |  |  | INH-r | MIC | 12.5 µg/mL
Nc1ccc(O)c2c1C(=O)c1c(NCCO)ccc(NCCO)c1C2=O |  |  | H37Rv | MIC | >100 µg/mL
CC(=O)c1cc2cc3c4c(c2oc1=O)CCCN4CCC3 |  | BACTEC | H37Rv | MIC bound | >12.5 µg/mL
CC(=O)c1ccccc1 |  |  | H37Rv | MIC | >100 µg/mL
COc1ccc2c(=O)c(-c3c(-c4ccccc4)oc4cc(OC)ccc4c3=O)c(-c3ccccc3)oc2c1 |  |  | H37Rv | EC50 | >12.5 µg/mL
Cc1ccc(C)n1-c1cccc(-c2ccc(N(C)C)cc2)n1 |  |  | H37Rv | MIC | >100 µg/mL
CO[C@H]1/C=C/O[C@@]2(C)Oc3c(C)c(O)c4c(=O)c(c5oc6cc(N7CCN(C(C)C)CC7)cc(=O)c6nc5c4c3=C2O)NC(=O)/C(C)=C\C=C\[C@H](C)[C@H](O)[C@@H](C)[C@@H](O)[C@@H](C)[C@H](OC(C)=O)[C@@H]1C |  |  | 3113 (rifampin-sensitive) | MBC | 0.1 µg/mL